Results taken from patent US10836796B2, “Derivatives of amanita toxins and their conjugation to a cell binding molecule” (Hangzhou DAC Biotech Co., Ltd., priority 2016, dated 2020).

Tested on: NCI-N87, a human gastric carcinoma cell line
Experiment: In vitro cytotoxicity evaluation (MTT assay)
Type: cell-based
Details: NCI-N87 cells, 120 hours incubation, read-out: N87 cell (Ag+) IC50

T-DM1: Trastuzumab-DM1, antibody conjugated with maytansine derivative DM1; comparator conjugate [reference compound]
IC50: 0.19 nM
